12 compounds from patent EP4821928A1, “BICYCLIC HETEROCYCLIC COMPOUND AND FUNGICIDE FOR AGRICULTURAL AND HORTICULTURAL USE CONTAINING SAME AS ACTIVE INGREDIENT” (dated 2026) can be followed below.

Molecules are shown by their SMILES.

One experiment has as its system Magnaporthe grisea. Nature of the experiment: Rice blast disease pot test (Test Example A). Particulars: 250 ppm sprayed, 2.5 ml/pot; rice variety Sachikaze; degree of disease development 6 to 8 days after inoculation.
Experiment [1] relates to Fusarium blight fungus (Fusarium graminearum). Kind of experiment: Fusarium blight anti-germ test (Test Example D). To be noted: 50 ppm/well; Czapek-dox broth; 25°C for 3 days; absorbance 600 nm.
The subject of experiment [2] is Speckled leaf blotch fungus (Septoria tritici). Nature of the experiment: Speckled leaf blotch anti-germ test (Test Example F). Particulars: 50 ppm/well; Czapek-dox broth; 25°C for 3 days; absorbance 600 nm.
Experiment [3] relates to Anthracnose fungus (Glomerella cingulata). Kind of experiment: Anthracnose anti-germ test (Test Example E). To be noted: 50 ppm/well; Czapek-dox broth; 25°C for 3 days; absorbance 600 nm.
A further experiment relates to Botrytis cinerea. Nature of the experiment: Tomato gray mold pot test (Test Example B). Particulars: 250 ppm sprayed, 2.5 ml/pot; tomato variety Oogata Fukuju; degree of disease development 2 to 3 days after inoculation.
In experiment [4] the test system is Gray mold fungus (Botrytis cinerea). Nature of the experiment: Gray mold anti-germ test (Test Example C). To be noted: 50 ppm/well; Czapek-dox broth; 25°C for 3 days; absorbance 600 nm.

For the compound `Cc1ccc2c(c1)OC(C)(C)N=C2n1cnc2c(F)cccc21`, the “Rice blast disease pot test (control value)” value (from here on “Rice blast disease pot test”) with Magnaporthe grisea is reported as “H (H represents a control value or rate of inhibition of larger than 50%)”. In experiment [1], the “Fusarium blight anti-germ test (rate of inhibition)” value is given as “H (H represents a control value or rate of inhibition of larger than 50%)”. Also, the “Speckled leaf blotch anti-germ test (rate of inhibition)” value in experiment [2] was “L (L represents a control value or rate of inhibition of 50% or less)”. Besides, in experiment [3], the “Anthracnose anti-germ test (rate of inhibition)” value was “H (H represents a control value or rate of inhibition of larger than 50%)”. In the experiment on Botrytis cinerea, the “Tomato gray mold pot test (control value)” value (shortened to “Tomato gray mold pot test”) is “H (H represents a control value or rate of inhibition of larger than 50%)”. In experiment [4], the “Gray mold anti-germ test (rate of inhibition)” value was “H (H represents a control value or rate of inhibition of larger than 50%)”.
Turning to `Cc1ccc2c(c1)OC(C)(CS(C)(=O)=O)N=C2n1cnc2c(C)c(C)ccc21` (stereo not drawn), the “Rice blast disease pot test” value with Magnaporthe grisea is reported as “H (H represents a control value or rate of inhibition of larger than 50%)”. In experiment [1], the “Fusarium blight anti-germ test (rate of inhibition)” value was “H (H represents a control value or rate of inhibition of larger than 50%)”. In addition, in experiment [2], the “Speckled leaf blotch anti-germ test (rate of inhibition)” value is on record as “L (L represents a control value or rate of inhibition of 50% or less)”. In addition, the “Anthracnose anti-germ test (rate of inhibition)” value in experiment [3] was “H (H represents a control value or rate of inhibition of larger than 50%)”. In the experiment with Botrytis cinerea, the “Tomato gray mold pot test” value is “H (H represents a control value or rate of inhibition of larger than 50%)”. Further, the “Gray mold anti-germ test (rate of inhibition)” value in experiment [4] is “H (H represents a control value or rate of inhibition of larger than 50%)”.
`COc1cccc2c1OC(C)(C)N=C2n1cnc2c(C(F)(F)F)cccc21`: in the experiment on Magnaporthe grisea, the “Rice blast disease pot test” value is on record as “H (H represents a control value or rate of inhibition of larger than 50%)”. For the same compound, in experiment [1], the “Fusarium blight anti-germ test (rate of inhibition)” value is on record as “L (L represents a control value or rate of inhibition of 50% or less)”. In addition, the “Speckled leaf blotch anti-germ test (rate of inhibition)” value in experiment [2] is reported as “L (L represents a control value or rate of inhibition of 50% or less)”. Further, the “Anthracnose anti-germ test (rate of inhibition)” value in experiment [3] is “L (L represents a control value or rate of inhibition of 50% or less)”. Besides, the “Tomato gray mold pot test” value with Botrytis cinerea is reported as “H (H represents a control value or rate of inhibition of larger than 50%)”. Moreover, the “Gray mold anti-germ test (rate of inhibition)” value in experiment [4] is “L (L represents a control value or rate of inhibition of 50% or less)”.
Consider `Cc1cccc2c1OC(C)(C)N=C2n1cnc2c(F)c(F)ccc21`, for which the “Rice blast disease pot test” value with Magnaporthe grisea is given as “H (H represents a control value or rate of inhibition of larger than 50%)”. The “Fusarium blight anti-germ test (rate of inhibition)” value in experiment [1] is listed as “L (L represents a control value or rate of inhibition of 50% or less)”. The “Speckled leaf blotch anti-germ test (rate of inhibition)” value in experiment [2] was “L (L represents a control value or rate of inhibition of 50% or less)”. For the same compound, in experiment [3], the “Anthracnose anti-germ test (rate of inhibition)” value was “H (H represents a control value or rate of inhibition of larger than 50%)”. For the same compound, the “Tomato gray mold pot test” value in the experiment with Botrytis cinerea is reported as “H (H represents a control value or rate of inhibition of larger than 50%)”. For the same compound, the “Gray mold anti-germ test (rate of inhibition)” value in experiment [4] is given as “H (H represents a control value or rate of inhibition of larger than 50%)”.
`Cc1cccc2c1OC(C)(C)N=C2n1cnc2c(C(F)(F)F)cccc21`: the “Rice blast disease pot test” value with Magnaporthe grisea is “L (L represents a control value or rate of inhibition of 50% or less)”. The “Fusarium blight anti-germ test (rate of inhibition)” value in experiment [1] is on record as “L (L represents a control value or rate of inhibition of 50% or less)”. The “Speckled leaf blotch anti-germ test (rate of inhibition)” value in experiment [2] was “L (L represents a control value or rate of inhibition of 50% or less)”. Further, the “Anthracnose anti-germ test (rate of inhibition)” value in experiment [3] is given as “H (H represents a control value or rate of inhibition of larger than 50%)”. The “Tomato gray mold pot test” value in the experiment on Botrytis cinerea is given as “H (H represents a control value or rate of inhibition of larger than 50%)”. Moreover, the “Gray mold anti-germ test (rate of inhibition)” value in experiment [4] is “H (H represents a control value or rate of inhibition of larger than 50%)”.
For `CNc1ccc2c(c1)OC(C)(C)N=C2n1cnc2c(C)c(C)ccc21`, the “Rice blast disease pot test” value with Magnaporthe grisea is recorded as “H (H represents a control value or rate of inhibition of larger than 50%)”. Moreover, the “Fusarium blight anti-germ test (rate of inhibition)” value in experiment [1] is “H (H represents a control value or rate of inhibition of larger than 50%)”. Also, in experiment [2], the “Speckled leaf blotch anti-germ test (rate of inhibition)” value was “H (H represents a control value or rate of inhibition of larger than 50%)”. Besides, the “Anthracnose anti-germ test (rate of inhibition)” value in experiment [3] is “H (H represents a control value or rate of inhibition of larger than 50%)”. For the same compound, in the experiment on Botrytis cinerea, the “Tomato gray mold pot test” value is given as “H (H represents a control value or rate of inhibition of larger than 50%)”. In addition, the “Gray mold anti-germ test (rate of inhibition)” value in experiment [4] is recorded as “H (H represents a control value or rate of inhibition of larger than 50%)”.
`COc1cccc2c1ncn2C1=NC(C)(C)Oc2c(Cl)cccc21`: in the experiment with Magnaporthe grisea, the “Rice blast disease pot test” value is “L (L represents a control value or rate of inhibition of 50% or less)”. In experiment [1], the “Fusarium blight anti-germ test (rate of inhibition)” value is given as “H (H represents a control value or rate of inhibition of larger than 50%)”. Also, the “Speckled leaf blotch anti-germ test (rate of inhibition)” value in experiment [2] was “L (L represents a control value or rate of inhibition of 50% or less)”. In experiment [3], the “Anthracnose anti-germ test (rate of inhibition)” value is on record as “H (H represents a control value or rate of inhibition of larger than 50%)”. In the experiment with Botrytis cinerea, the “Tomato gray mold pot test” value is “L (L represents a control value or rate of inhibition of 50% or less)”. Moreover, in experiment [4], the “Gray mold anti-germ test (rate of inhibition)” value is “H (H represents a control value or rate of inhibition of larger than 50%)”.
Take `Cc1ccc2c(ncn2C2=NC(C)(C)[S+]([O-])c3c(F)cccc32)c1C` (stereo not drawn): the “Rice blast disease pot test” value in the experiment on Magnaporthe grisea is given as “H (H represents a control value or rate of inhibition of larger than 50%)”. In addition, the “Fusarium blight anti-germ test (rate of inhibition)” value in experiment [1] is “H (H represents a control value or rate of inhibition of larger than 50%)”. Besides, the “Speckled leaf blotch anti-germ test (rate of inhibition)” value in experiment [2] is reported as “L (L represents a control value or rate of inhibition of 50% or less)”. For the same compound, the “Anthracnose anti-germ test (rate of inhibition)” value in experiment [3] is reported as “H (H represents a control value or rate of inhibition of larger than 50%)”. In the experiment with Botrytis cinerea, the “Tomato gray mold pot test” value is on record as “H (H represents a control value or rate of inhibition of larger than 50%)”. The “Gray mold anti-germ test (rate of inhibition)” value in experiment [4] is recorded as “H (H represents a control value or rate of inhibition of larger than 50%)”.
For `Cc1c(Cl)cnc2c1ncn2C1=NC(C)(C)Sc2c(F)cccc21`, the “Rice blast disease pot test” value in the experiment with Magnaporthe grisea is “H (H represents a control value or rate of inhibition of larger than 50%)”. In addition, the “Fusarium blight anti-germ test (rate of inhibition)” value in experiment [1] is reported as “H (H represents a control value or rate of inhibition of larger than 50%)”. Also, the “Speckled leaf blotch anti-germ test (rate of inhibition)” value in experiment [2] is “L (L represents a control value or rate of inhibition of 50% or less)”. The “Anthracnose anti-germ test (rate of inhibition)” value in experiment [3] was “H (H represents a control value or rate of inhibition of larger than 50%)”. In addition, in the experiment on Botrytis cinerea, the “Tomato gray mold pot test” value is “H (H represents a control value or rate of inhibition of larger than 50%)”. The “Gray mold anti-germ test (rate of inhibition)” value in experiment [4] is “H (H represents a control value or rate of inhibition of larger than 50%)”.
Take `Cc1ccc2c(C3=NC(C)(C)Oc4c3ccc(F)c4F)cnn2c1C`: the “Rice blast disease pot test” value in the experiment on Magnaporthe grisea is given as “H (H represents a control value or rate of inhibition of larger than 50%)”. Further, the “Fusarium blight anti-germ test (rate of inhibition)” value in experiment [1] was “H (H represents a control value or rate of inhibition of larger than 50%)”. In addition, the “Speckled leaf blotch anti-germ test (rate of inhibition)” value in experiment [2] was “L (L represents a control value or rate of inhibition of 50% or less)”. Moreover, in experiment [3], the “Anthracnose anti-germ test (rate of inhibition)” value is listed as “H (H represents a control value or rate of inhibition of larger than 50%)”. Further, the “Tomato gray mold pot test” value in the experiment on Botrytis cinerea is listed as “H (H represents a control value or rate of inhibition of larger than 50%)”. Further, the “Gray mold anti-germ test (rate of inhibition)” value in experiment [4] is reported as “H (H represents a control value or rate of inhibition of larger than 50%)”.
With `Cc1ccc2c(c1)OC(C)(C)N=C2n1cnc2c(C)cccc21`, in the experiment on Magnaporthe grisea, the “Rice blast disease pot test” value is listed as “H (H represents a control value or rate of inhibition of larger than 50%)”. Further, the “Fusarium blight anti-germ test (rate of inhibition)” value in experiment [1] was “H (H represents a control value or rate of inhibition of larger than 50%)”. The “Speckled leaf blotch anti-germ test (rate of inhibition)” value in experiment [2] is “H (H represents a control value or rate of inhibition of larger than 50%)”. Besides, the “Anthracnose anti-germ test (rate of inhibition)” value in experiment [3] is “H (H represents a control value or rate of inhibition of larger than 50%)”. For the same compound, the “Tomato gray mold pot test” value with Botrytis cinerea is “H (H represents a control value or rate of inhibition of larger than 50%)”. Besides, the “Gray mold anti-germ test (rate of inhibition)” value in experiment [4] is reported as “H (H represents a control value or rate of inhibition of larger than 50%)”.
In the case of `CCNc1ccc2c(c1)OC(C)(C)N=C2n1cnc2c(C)c(C)ccc21`, the “Rice blast disease pot test” value in the experiment with Magnaporthe grisea is given as “H (H represents a control value or rate of inhibition of larger than 50%)”. The “Fusarium blight anti-germ test (rate of inhibition)” value in experiment [1] is “H (H represents a control value or rate of inhibition of larger than 50%)”. Moreover, in experiment [2], the “Speckled leaf blotch anti-germ test (rate of inhibition)” value was “H (H represents a control value or rate of inhibition of larger than 50%)”. The “Anthracnose anti-germ test (rate of inhibition)” value in experiment [3] is given as “H (H represents a control value or rate of inhibition of larger than 50%)”. For the same compound, in the experiment with Botrytis cinerea, the “Tomato gray mold pot test” value is reported as “H (H represents a control value or rate of inhibition of larger than 50%)”. For the same compound, in experiment [4], the “Gray mold anti-germ test (rate of inhibition)” value was “H (H represents a control value or rate of inhibition of larger than 50%)”.
